Experimental findings from the supplement of paper PMC10646978 are described below.

Conditions in all cases: modulator concentration 10 µM
Assay [1] has as its system RAW-Dual (murine macrophage reporter line). Kind of assay: NF-kB reporter (SEAP) activity fold change vs agonist alone; higher = enhanced NF-kB activity. Put shortly: (§1)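 In 384-well plates holding 50 000 RAW-Dual murine macrophage reporter cells per well, compound at 10 μM final was pre-incubated for 1 hour at 37 °C, after which a PRR agonist was added overnight. Supernatant SEAP read with QUANTI-Blue at 620 nm absorbance reported NF-κB, and Lucia luciferase read with QUANTI-Luc luminescence reported IRF. Fold change values come from dividing each reporter signal by the mean of agonist-only control wells on the same plate, averaged over replicate plates with propagated errors.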

The test system is the same in assay [2]. The assay is described as follows: IRF reporter (Lucia luciferase) activity fold change vs agonist alone; higher = enhanced IRF activity. An outline of the steps:
as §1

For assay [3] the test system is unchanged. The assay is described as follows: viability score (confluency relative to resting cells, overnight) (fraction); higher = more viable, active = viable (0.7 or more). Put shortly:
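RAW-Dual macrophages in 384-well plates were treated overnight with compound at 10 μM final. IncuCyte imaging recorded confluency, and IncuCyte software built two confluency masks across every imaged well. The viability score expresses confluency relative to resting cells and was judged against a cutoff, which a compound met only if both masks exceeded 70% of resting cells.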

± gives the standard deviation. Only a part is listed here, and it is no random draw.

For `O=C(CBr)c1ccc(Cl)cc1`, the NF-kB reporter stood at 1.78 ± 0.2 in assay [1] (agonist: CpG ODN 1826 0.5 ug/mL), 1.22 ± 0.059 in assay [1] (agonist: LPS 0.1 ug/mL) and 2.17 ± 0.069 in assay [1] (agonist: MPLA […]). Moreover, the IRF reporter in assay [2] (agonist: 3'3'-cGAMP 10 ug/mL) turned out to be 1 ± 0.065; in assay [2] (agonist: LPS 0.1 ug/mL) it was 1.08 ± 0.037; in assay [2] (agonist: MPLA […]), 1.6 ± 0.19. Besides, the viability score in assay [3] was active: 0.976.
